Experimental data: ChEMBL document CHEMBL5038580 (J Med Chem, 2022)

Tested on: Middle East respiratory syndrome-related coronavirus
Assay: Antiviral activity against MERS-CoV assessed as reduction in viral infection preincubated with virus for 30 mins followed by Huh-7 cells addition and culture replaced with fresh medium after 12 hrs post infection measured after 48 hrs by fluorescence assay

**Q.** How did the IC50 turn out when `CC[C@H](C)[C@H](NC(=O)[C@H](Cc1ccc(O)cc1)NC(=O)[C@H](CO)NC(=O)[C@H](CCC(=O)O)NC(=O)[C@H](CCC(=O)O)NC(=O)[C@H](CC(C)C)NC(=O)[C@H](CCCCN)NC(=O)[C@H](CCCCN)NC(=O)[C@@H](NC(=O)[C@@H](NC(=O)[C@H](CCC(=O)O)NC(=O)[C@H](CCC(=O)O)NC(=O)[C@H](CC(C)C)NC(=O)[C@H](CCCCN)NC(=O)[C@H](CCCCN)NC(=O)[C@H](CCSC)NC(=O)[C@H](CCC(=O)O)NC(=O)[C@H](Cc1ccc(O)cc1)NC(=O)[C@H](CCC(=O)O)NC(=O)[C@H](CC(C)C)NC(=O)[C@H](CC(=O)O)NC(=O)[C@H](CC(C)C)NC(=O)[C@H](CC(C)C)NC(=O)[C@@H](NC(=O)[C@@H](NC(=O)[C@H](CC(N)=O)NC(=O)[C@@H](NC(=O)[C@H](CCC(N)=O)NC(=O)[C@@H](NC(=O)[C@H](CC(C)C)NC(=O)[C@H](CO)NC(C)=O)[C@@H](C)O)[C@@H](C)CC)[C@@H](C)O)[C@@H](C)O)C(C)C)C(C)C)C(=O)N[C@@H](CC(=O)O)C(=O)N[C@@H](CC(C)C)C(=O)N[C@@H](CCCCN)C(=O)N[C@@H](CCC(=O)O)C(=O)N[C@@H](CC(C)C)C(N)=O` was run?
**A.** 450 nM
